In publication PMC9027599, “Secondary Metabolites in Basil, Bio-Insecticide, Inhibition Effect, and In Silico Molecular Docking against Proteolytic Enzymes of the Red Palm Weevil (Rhynchophorus ferrugineus)” (Plants, 2022) one finds LC50 data, which are given here for one substance.

This data set deals with R. ferrugineus adults. The note with it: probit analysis, 95% confidence limits in brackets. The procedure:
The R. ferrugineus adult and larvae were acquired from an insect breeding lab at King Faisal University’s Date Palm Research Center of Excellence and grown utilizing sugarcane stem long pieces. The extracts activity against larvae was determined by using topical application method with storing larvae at 4–5 °C for 5 min. Previous serial concentrations of extract (10 µL) were applied to the dorsum of each larvae using a hand-operated micro-applicator (Burkard Manufacturing Co., Ltd., Hertfordshire, UK with a 50-ll micro-syringe (MS-N50; Ito Corp., Shizuoka, Japan). Each larva was feeding on 10 cm stem pieces of long sugarcane, with 5 larvae/box with three replicates. After topical administration, larval mortality was determined after 24, 48, 72, and 96 h to determine the LD50. Adults were tested for antifeedant effect determined using ten-centimeter-long sections of sugarcane stem divided into equal longitudinal halves. […]
Finney states that the statistical analysis and probit analysis were conducted using the SPSS 25.0 program (Statistical Package for Social Sciences, Armonk, NY, USA). Chemical components were determined by PCA using SPSS 25.0 program and presented using XLSTAT 2018.1. […] The range of LC50 was calculated with a 95 percent confidence interval using least-squares. […]

Take “dicaffeoyl-tartaric acid [Chicoric acid]”: the LC50 is 1132 (1004–1198) µg/mL.
